Reference: PMC12647020, “Recombinant expression and functional characterization of influenza A virus neuraminidase in a mammalian cell system” (2025)

Legend:
[1] = biological target: H5N8-tet, tetrameric recombinant neuraminidase (NA) of influenza A virus H5N8/A/Astrakhan/3212/2020 (human | influenza A virus H5N8/A/Astrakhan/3212/2020); assay: negative-stain electron microscopy
[2] = biological target: H2N2-tet, tetrameric recombinant neuraminidase (NA) of influenza A virus H2N2/A/mallard/MT/Y61 with (human | influenza A virus H2N2/A/mallard/MT/Y61); assay: negative-stain electron microscopy

Row | Substance | stoichiometry N [1] | stoichiometry N [2]
1 | H5N8-tet, tetrameric recombinant neuraminidase (NA) of influenza A virus H5N8/A/Astrakhan/3212/2020 | 4 | 
2 | H2N2-tet, tetrameric recombinant neuraminidase (NA) of influenza A virus H2N2/A/mallard/MT/Y61 with |  | 4
